PubChem BioAssay AID504761 | Drosophila RNAi Screening Center, 2011

Assay: 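Genome-wide fly cell screen for genes dengue virus requires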 (primary screen)
System: D.Mel-2 cells from Drosophila
Reagent: long dsRNA against Drosophila genes
Conditions: infection with dengue virus type 2; dose and infection time not stated
Measured: 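Cells stained for dengue envelope protein and imaged; percent of infected cells per well on duplicate plates, ranked by infection, with stained nuclei counted for cell number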
Direction: infection score: higher = more virus-infected cells; cell count: higher = more cells in the well
Active means: 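Low infection ranks in the two replicates (chance level up to 0.065) followed by a retest with a 1.5-fold or larger significant decrease, p below 0.05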
Meaning of the calls: active = confirmed: knock-down lowers infection; inactive = not picked or not confirmed
In all, the deposit lists about 22,000 reagents; this is a random part of those that have a named target and a result. Of all reagents, 116 (0.52%) are marked active. 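Calls depend on retest data that are not deposited; infection was ranked per plate without normalising between plates; the unit of the infection score is not given.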 Raw values vary from plate to plate and are shown uncorrected. A number with no mark means an inactive call. The numbers tell different reagents against one gene apart. The record does not give: the amount of reagent, the time to read-out.

| infection score, replicate 1 | infection score, replicate 2 | cell count, replicate 1 | cell count, replicate 2 | target gene | reagent no. |
| --- | --- | --- | --- | --- | --- |
| 0.93 | 1.67 | 6209 | 6346 | CG17687 (GeneID 39495) | 1 |
| 1.59 | 0.86 | 6468 | 5899 | CG17687 (GeneID 39495) | 2 |
| 0.37 (active) | 0.23 | 6430 | 6474 | CG33263 (GeneID 2768952) | 1 |
| 2.29 | 17.6 | 6993 | 5978 | CG11127 (GeneID 35673) | 1 |
| 1.53 | 15.5 | 6847 | 4143 | Ugt303B1 (GeneID 42775) | 1 |
| 7.1 | 8.05 | 6141 | 6024 | CG32669 (GeneID 326229) | 1 |
| 2.88 | 8.18 | 5486 | 5034 | Mrtf (GeneID 38338) | 1 |
| 0.46 | 3.47 | 6289 | 6372 | Mrtf (GeneID 38338) | 2 |
| 2.34 | 3.2 | 7258 | 6148 | Mrtf (GeneID 38338) | 3 |
| – | 10.6 | 145 | 6189 | CG11444 (GeneID 31388) | 1 |
| 2.78 | 6.44 | 6611 | 5883 | CG11444 (GeneID 31388) | 2 |
| 2.28 (active) | 2.99 | 6897 | 6649 | CG9801 (GeneID 41044) | 1 |
| 7 | 7.16 | 5772 | 5713 | CG12637 (GeneID 31996) | 1 |
| 20.1 | 26.7 | 6409 | 5455 | CG12637 (GeneID 31996) | 2 |
| – | – | 490 | 434 | Sam-S (GeneID 48552) | 1 |
| 16 | 28.8 | 6899 | 5729 | PPO3 (GeneID 44513) | 1 |
| 1.15 | 1 | 6459 | 6321 | PPO3 (GeneID 44513) | 2 |
| 5.61 | 2.93 | 6546 | 6494 | CG13984 (GeneID 33879) | 1 |
| 6.51 | 6.1 | 6376 | 6250 | CG14567 (GeneID 40420) | 1 |
| 1.55 | 1.15 | 6191 | 6635 | CG13481 (GeneID 39579) | 1 |
| 7.07 | 16.1 | 2333 | 6143 | CG13481 (GeneID 39579) | 2 |
| 25.3 | 11 | 5904 | 6982 | mub (GeneID 40436) | 1 |
| 15.6 | 11.6 | 6562 | 5967 | mub (GeneID 40436) | 2 |
| 3.77 | 5.9 | 6506 | 6748 | Tk (GeneID 41456) | 1 |
| 2.02 | 3.35 | 6477 | 6771 | Tk (GeneID 41456) | 2 |
| 10.4 | 19 | 5444 | 6404 | Tk (GeneID 41456) | 3 |
| 2.44 | 1.58 | 6669 | 6508 | CG10962 (GeneID 31824) | 1 |
| 5.32 | 14.7 | 1503 | 2829 | CG10962 (GeneID 31824) | 2 |
| 2.62 | 18.6 | 6211 | 5679 | CG7276 (GeneID 39668) | 1 |
| 1.71 | 9.14 | 6372 | 6540 | CG4820 (GeneID 41344) | 1 |
| 6.89 | 7.54 | 6576 | 6617 | CG14636 (GeneID 40526) | 1 |
| – | – | 396 | 427 | CG14636 (GeneID 40526) | 2 |
| 2.03 | 4.91 | 6545 | 6883 | Naa30A (GeneID 31079) | 1 |
| 3.9 | 6.18 | 6849 | 5806 | Naa30A (GeneID 31079) | 2 |
| 1.65 | 5.48 | 6838 | 6691 | Gr93c (GeneID 117471) | 1 |
| 17 | 4.73 | 5394 | 6597 | CG17652 (GeneID 33353) | 1 |
| 6.75 | 2.88 | 6816 | 6595 | Gr36a (GeneID 117488) | 1 |
| 4.38 | 12.9 | 6444 | 6257 | Gr36a (GeneID 117488) | 2 |
| 7.03 | 1.09 | 5649 | 6171 | Idh3a (GeneID 32940) | 1 |
| 2.49 | 1.68 | 723 | 475 | Idh3a (GeneID 32940) | 2 |
| 7.25 | 4.84 | 6701 | 7172 | CG7557 (GeneID 39278) | 1 |
| 18.3 | 14.6 | 5149 | 3782 | CG7557 (GeneID 39278) | 2 |
| 3.59 | 1.38 | 6464 | 6144 | cpx (GeneID 64877) | 1 |
| 10.1 | 6.75 | 6533 | 6191 | eIF4E5 (GeneID 38878) | 1 |
| 4.38 | 4.14 | 6077 | 6203 | eIF4E5 (GeneID 38878) | 2 |
| 5.54 | 0.17 | 5997 | 6329 | CG31686 (retired record) (GeneID 318885) | 1 |
| 11.4 | 11.9 | 6781 | 6425 | CG31686 (retired record) (GeneID 318885) | 2 |
| 3.82 | 1.12 | 6593 | 1516 | CG3517 (GeneID 42324) | 1 |
| 5.13 | 15.3 | 6720 | 5996 | CG3517 (GeneID 42324) | 2 |
| 2.45 | 9.05 | 6197 | 2200 | CG5447 (GeneID 43192) | 1 |
| 0.81 | 2.39 | 6381 | 6195 | CG5447 (GeneID 43192) | 2 |
| 7.83 | 1.49 | 6273 | 6768 | Mst84Db (GeneID 40888) | 1 |
| 6.55 | 7.2 | 5981 | 6641 | Mst84Db (GeneID 40888) | 2 |
| 25.5 | 10.9 | 4417 | 1299 | Mst84Db (GeneID 40888) | 3 |
| 10.6 | 3.25 | 5176 | 1046 | HDAC11 (GeneID 326120) | 1 |
| 2.95 | 2.51 | 6365 | 6138 | HDAC11 (GeneID 326120) | 2 |
| 1.78 | 0.97 | 2703 | 2567 | Rpn12 (GeneID 39845) | 1 |
| 2.42 | 2.36 | 413 | 509 | Rpn12 (GeneID 39845) | 2 |

6 of these entries in another layout:
infection score, replicate 1	infection score, replicate 2	cell count, replicate 1	cell count, replicate 2	target gene	reagent no.
	10.6	145	6189	CG11444 (GeneID 31388)	1
2.78	6.44	6611	5883	CG11444 (GeneID 31388)	2
2.28 (active)	2.99	6897	6649	CG9801 (GeneID 41044)	1
7	7.16	5772	5713	CG12637 (GeneID 31996)	1
20.1	26.7	6409	5455	CG12637 (GeneID 31996)	2
		490	434	Sam-S (GeneID 48552)	1
